pKi: −log10 of the molar value.

By UniProt entry, the sequences of proteins in these tests, tags left out.
UniProt P27958, whole entry, looked up: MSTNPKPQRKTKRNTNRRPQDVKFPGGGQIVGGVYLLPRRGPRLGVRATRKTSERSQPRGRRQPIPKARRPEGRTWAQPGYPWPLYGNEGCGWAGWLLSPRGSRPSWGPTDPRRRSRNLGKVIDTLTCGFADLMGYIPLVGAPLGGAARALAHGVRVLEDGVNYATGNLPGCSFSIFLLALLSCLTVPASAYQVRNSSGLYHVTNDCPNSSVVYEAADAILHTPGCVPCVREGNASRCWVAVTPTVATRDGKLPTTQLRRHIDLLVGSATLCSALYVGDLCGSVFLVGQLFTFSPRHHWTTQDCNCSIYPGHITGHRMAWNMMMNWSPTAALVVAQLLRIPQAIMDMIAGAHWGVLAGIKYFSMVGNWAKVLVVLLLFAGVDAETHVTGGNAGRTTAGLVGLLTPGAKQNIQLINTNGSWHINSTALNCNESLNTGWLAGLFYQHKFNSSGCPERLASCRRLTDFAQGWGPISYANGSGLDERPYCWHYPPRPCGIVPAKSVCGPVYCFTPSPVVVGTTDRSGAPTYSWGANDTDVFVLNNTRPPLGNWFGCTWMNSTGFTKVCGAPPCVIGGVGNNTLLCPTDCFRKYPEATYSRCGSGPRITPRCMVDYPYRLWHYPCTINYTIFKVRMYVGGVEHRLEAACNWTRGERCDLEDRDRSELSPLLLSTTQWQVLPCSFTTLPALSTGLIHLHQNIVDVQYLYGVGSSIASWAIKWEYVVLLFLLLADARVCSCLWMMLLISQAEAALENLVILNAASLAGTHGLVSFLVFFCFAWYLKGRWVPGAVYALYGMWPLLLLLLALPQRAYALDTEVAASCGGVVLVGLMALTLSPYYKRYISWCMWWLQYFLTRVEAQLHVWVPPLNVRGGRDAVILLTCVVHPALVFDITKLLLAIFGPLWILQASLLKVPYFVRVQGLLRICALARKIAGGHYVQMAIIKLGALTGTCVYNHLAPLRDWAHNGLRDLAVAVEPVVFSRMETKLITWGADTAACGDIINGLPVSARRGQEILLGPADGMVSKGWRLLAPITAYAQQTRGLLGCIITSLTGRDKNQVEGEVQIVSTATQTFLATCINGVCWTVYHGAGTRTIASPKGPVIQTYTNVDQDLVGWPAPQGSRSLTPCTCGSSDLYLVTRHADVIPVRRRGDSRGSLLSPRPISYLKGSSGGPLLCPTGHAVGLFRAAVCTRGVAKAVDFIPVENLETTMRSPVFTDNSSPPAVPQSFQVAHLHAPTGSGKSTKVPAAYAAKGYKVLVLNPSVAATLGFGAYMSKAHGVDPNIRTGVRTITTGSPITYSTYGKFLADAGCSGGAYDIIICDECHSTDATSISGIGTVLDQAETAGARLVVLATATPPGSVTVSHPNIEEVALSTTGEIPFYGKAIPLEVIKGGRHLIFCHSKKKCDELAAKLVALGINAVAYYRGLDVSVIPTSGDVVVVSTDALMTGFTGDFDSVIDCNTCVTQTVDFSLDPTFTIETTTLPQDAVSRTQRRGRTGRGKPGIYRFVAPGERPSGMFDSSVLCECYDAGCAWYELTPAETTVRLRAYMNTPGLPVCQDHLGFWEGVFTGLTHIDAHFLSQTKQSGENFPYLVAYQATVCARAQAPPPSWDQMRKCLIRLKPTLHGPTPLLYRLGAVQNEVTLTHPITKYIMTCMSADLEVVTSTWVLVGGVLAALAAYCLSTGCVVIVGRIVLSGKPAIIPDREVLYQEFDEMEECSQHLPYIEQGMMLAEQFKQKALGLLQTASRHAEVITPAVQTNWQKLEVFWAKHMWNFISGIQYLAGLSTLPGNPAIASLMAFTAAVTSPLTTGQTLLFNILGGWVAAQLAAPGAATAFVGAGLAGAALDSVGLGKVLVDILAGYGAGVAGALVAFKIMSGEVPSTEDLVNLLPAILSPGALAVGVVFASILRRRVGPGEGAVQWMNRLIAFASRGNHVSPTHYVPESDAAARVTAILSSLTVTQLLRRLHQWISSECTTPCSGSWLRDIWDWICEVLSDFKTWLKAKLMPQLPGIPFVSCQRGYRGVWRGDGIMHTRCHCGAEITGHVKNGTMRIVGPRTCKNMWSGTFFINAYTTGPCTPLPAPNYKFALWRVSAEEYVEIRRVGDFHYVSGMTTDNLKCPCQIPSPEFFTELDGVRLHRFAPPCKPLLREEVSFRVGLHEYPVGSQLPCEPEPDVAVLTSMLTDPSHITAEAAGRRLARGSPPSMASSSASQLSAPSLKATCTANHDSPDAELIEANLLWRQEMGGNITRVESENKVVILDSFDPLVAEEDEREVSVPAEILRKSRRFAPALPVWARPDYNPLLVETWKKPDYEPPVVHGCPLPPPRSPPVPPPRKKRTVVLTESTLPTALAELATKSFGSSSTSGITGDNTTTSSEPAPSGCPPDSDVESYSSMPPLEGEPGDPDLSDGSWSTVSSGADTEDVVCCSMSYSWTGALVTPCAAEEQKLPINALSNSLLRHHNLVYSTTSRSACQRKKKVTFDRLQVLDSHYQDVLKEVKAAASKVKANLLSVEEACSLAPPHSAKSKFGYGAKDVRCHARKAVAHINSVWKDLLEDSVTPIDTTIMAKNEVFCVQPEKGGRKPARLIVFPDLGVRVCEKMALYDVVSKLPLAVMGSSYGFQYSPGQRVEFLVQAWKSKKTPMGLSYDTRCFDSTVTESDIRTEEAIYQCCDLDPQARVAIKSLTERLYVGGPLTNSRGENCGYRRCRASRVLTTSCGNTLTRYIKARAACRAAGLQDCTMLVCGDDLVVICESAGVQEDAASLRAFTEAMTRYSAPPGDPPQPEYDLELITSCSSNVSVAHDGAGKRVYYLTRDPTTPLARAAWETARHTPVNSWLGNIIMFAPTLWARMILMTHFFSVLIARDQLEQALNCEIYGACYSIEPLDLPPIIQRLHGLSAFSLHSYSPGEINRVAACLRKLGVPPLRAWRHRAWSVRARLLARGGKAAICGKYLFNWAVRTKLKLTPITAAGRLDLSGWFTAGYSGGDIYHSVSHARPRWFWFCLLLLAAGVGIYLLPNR

This assay has as its target Genome polyprotein (Hepatitis C virus genotype 1a (isolate H) (HCV), UniProt P27958).

As to `CCOc1nc(N)nc2c1ncn2[C@@H]1O[C@@H]2COP(=O)(C(C)C)OC2[C@@]1(C)F` (stereo partly specified), the pKi (in general, the Ki on a negative log10 scale, so that one unit is a factor of ten) was 7.52.

The values are drawn from ChEMBL document CHEMBL3638459, “2‚Ä=-substituted nucleoside derivatives and methods of use thereof for the treatment of viral diseases” (2015).
